These results are taken from publication PMC7240701 (Journal of medicinal chemistry, 2019).

Read-outs that look alike come from different tables or passages of the source.

The subject of the assay is T. cruzi CA-I/72 intracellular amastigote. The experiment in a line: Cell-based intracellular T. cruzi amastigote assay.

With `CC[C@H](C)[C@@H](C(=O)O[C@@H](CC(C)C)C(=O)N[C@@H](CC(C)C)C(=O)N[C@@H](C)/C=C/C(=O)N1C(=O)C=C(OC)[C@@H]1C)N(C)C` [compound 1, Gallinamide A], the LD50 (intracellular amastigotes in C2C12 cells, 72 h) was 14.7 nM. In the case of `CC[C@H](C)[C@@H](C(=O)O[C@@H](CC(C)C)C(=O)N[C@@H](CC(C)C)C(=O)N[C@@H](C)/C=C/C(=O)N1C(=O)C=C(OC)[C@@H]1CC(C)C)N(C)C` [compound 5, (S)-1-(((S)-1-(((S,E)-5-((S)-2-Isobutyl-3-methoxy-5-oxo-2,5-dihydro-1H-pyrrol-1-yl)-5-oxopent-3-en-2-yl)amino)-4-methyl-1-oxopentan-2-yl)amino)-4-methyl-1-oxopentan-2-yl dimethyl-L-isoleucinate], the LD50 is reported as 5.1 ± 1.4 nM.
